Pooled drug test results. Numbers come from NIAID ChemDB, via PubChem.

Common to all: tests in culture; agent: HIV-1; cells: TZM-bl; measure: EC50

ECn is the concentration giving n% inhibition of infection, replication or growth. An empty or dashed field is not shown. Conditions beyond the fields shown may differ between rows.

CCC(I)C1(c2ccc(F)cc2)OC(=O)c2ccccc21 ; strain or isolate: IIIB ; method: luciferase ; result: 126 µM
Clc1cc(/C=C/c2ccc(N3CCOCC3)cc2)nc2ccccc12 ; strain or isolate: UG070 ; method: luminescence ; result: 61 µM
[Cl][Cu][Cl].c1cc2nc(c1)CNCCNCCNCCNC2 ; strain or isolate: NL4-3 ; method: luminescence ; result: 67.7 µM
COc1cc(OC)nc(N2C(=O)CSC2c2c(Cl)ncnc2Cl)n1 ; strain or isolate: NL4-3 ; method: MTT ; result: 3.58 µM
Cc1cc(C#N)cc(C)c1Oc1nc(Nc2ccc(C#N)cc2)nc(N)c1Br ; strain or isolate: LAI ; changes: E138R ; result: 0.0053 µM
[Cl][Mn][Cl].c1cc2c3nc1CNCCNCCNCCNC3CCC2 ; strain or isolate: NL4-3 ; method: luminescence ; result: 0.52 µM
CCCCCOC(=O)C[C@H](NP(=O)(CO[C@@H](CF)Cn1ccc2c(=O)[nH]c(N)nc21)N[C@@H](CC(=O)OCCCCC)C(=O)OCCCCC)C(=O)OCCCCC ; strain or isolate: BaL ; method: luciferase ; result: 2.62 µM
O=C1OC(C(Cl)c2ccccc2Br)c2ccccc21 ; strain or isolate: IIIB ; method: luciferase ; result: 0.6 µM
Cc1cn([C@H]2C[C@H](N=[N+]=[N-])[C@@H](CO)O2)c(=O)[nH]c1=O ; strain or isolate: REJO4541.67 ; method: p24 / ELISA ; result: 0.01841 µM
CCOC(=O)C(O)(c1c[nH]c2ccc(C#N)cc12)C(F)(F)F ; strain or isolate: IIIB ; result: 0.445 µM
O=C1O[C@](CCl)(c2ccc(F)cc2)c2ccccc21 ; strain or isolate: IIIB ; method: luciferase ; result: 13.5 µM
[Cl][Mn][Cl].c1c2c3nc4c1CCCC4=NCCNCCNCCN=C3CCC2 ; strain or isolate: NL4-3 ; method: luminescence ; result: 1.9 µM
COC(=O)C(O)(c1c[nH]c2ccc(F)cc12)C(F)(F)F ; strain or isolate: IIIB ; result: 85.6 µM
[Cl][Cu][Cl].c1cc2c3nc1CNCCNCCNCCNC3CCC2 ; strain or isolate: NL4-3 ; method: luminescence ; result: 1.8 µM
COc1cccc(/C=C/c2cc(Cl)c3ccccc3n2)c1OC ; strain or isolate: UG070 ; method: luminescence ; result: 97.92 µM
CC1=CC2=C(C(C)C)C(O)C(=O)/C(=C\NC(C)(C)C(=O)O)C2C(O)=C1c1c(C)cc2c(C(C)C)c(O)c(O)c(C=NC(C)(C)C(=O)O)c2c1O.[Na+].[Na+] ; strain or isolate: NL4-3 ; method: luciferase / reporter gene ; result: 0.34 µM
Cc1ccc(/C=C/c2cc(Cl)c3ccccc3n2)cc1 ; strain or isolate: VB59 ; method: luminescence ; result: 7.51 µM
Cc1ccnc2c1NC(=O)c1cccnc1N2C1CC1 ; strain or isolate: IIIB ; method: luciferase ; result: 0.014 µM
COc1ccc(Sc2nc(N)nc3c2ncn3C[C@@H](CF)OP(=O)(O)O)cc1 ; strain or isolate: BaL ; method: luciferase ; result: >100 µM
Cc1cc2c(C(C)C)c(O)c(O)c(C=O)c2c(O)c1-c1c(C)cc2c(C(C)C)c(O)c(O)c(C=O)c2c1O ; strain or isolate: NL4-3 ; method: luciferase / reporter gene ; result: 0.64 µM
CCCCCOC(=O)C[C@H](NP(=O)(CO[C@@H](CF)Cn1ccc2c(=O)[nH]c(N)nc21)Oc1ccccc1)C(=O)OCCCCC ; strain or isolate: BaL ; method: luciferase ; result: 7.95 µM
Cc1cc(/C=C/C#N)cc(C)c1Nc1ccnc(Nc2ccc(C#N)cc2)n1 ; strain or isolate: LAI ; changes: E138K ; result: 0.0008 µM
COC(=O)C(O)(c1c[nH]c2ccc(C=O)cc12)C(F)(F)F ; strain or isolate: IIIB ; result: 49 µM
O=C1OC(C(Cl)c2ccccc2F)c2ccccc21 ; strain or isolate: IIIB ; method: luciferase ; result: 2 µM
Nc1nc2c(c(F)cn2C[C@@H](CF)OCP(=O)(O)O)c(=O)[nH]1 ; strain or isolate: NL4-3 ; method: luciferase ; result: >100 µM
CC(C)OC(=O)[C@H](C)N[P@](=O)(CO[C@H](C)Cn1cnc2c(N)ncnc21)Oc1ccccc1 ; strain or isolate: NL4-3 ; method: luciferase / reporter gene ; result: 0.00048 µM
Cc1ccc(C(=O)Nc2ccc(S(=O)(=O)O)c3cc(S(=O)(=O)O)cc(S(=O)(=O)O)c23)cc1NC(=O)c1cccc(NC(=O)Nc2cccc(C(=O)Nc3cc(C(=O)Nc4ccc(S(=O)(=O)O)c5cc(S(=O)(=O)O)cc(S(=O)(=O)O)c45)ccc3C)c2)c1 ; strain or isolate: LAI ; method: luciferase ; result: 80 µM
CC(C)=CCOc1cc(NC(=S)c2ccoc2C)ccc1Cl ; strain or isolate: NL4-3 ; changes: D36G ; method: luminescence ; result: 61.66 µM
Cc1cn([C@H]2C[C@H](N=[N+]=[N-])[C@@H](CO)O2)c(=O)[nH]c1=O ; strain or isolate: BaL ; method: luciferase / luminescence ; result: 0.00597 µM
c1c2c3nc4c1CCC[C@@H]4NCCNCCNCCN[C@H]3CCC2 ; strain or isolate: NL4-3 ; method: luminescence ; result: 1.4 µM
Cc1cc(C)nc(N2C(=O)CSC2c2c(Cl)ncnc2Cl)n1 ; strain or isolate: NL4-3 ; method: MTT ; result: 6.31 µM
CC1=CC2=C(C(C)C)C(O)C(=O)/C(=C\N[C@H](CC(C)C)C(=O)O)C2C(O)=C1c1c(C)cc2c(C(C)C)c(O)c(O)c(C=N[C@@H](CC(C)C)C(=O)O)c2c1O.[Na+].[Na+] ; strain or isolate: NL4-3 ; method: luciferase / reporter gene ; result: 0.22 µM
C1=NCCNCCNCCN=Cc2cccc1n2.[Cl][Mn][Cl] ; strain or isolate: NL4-3 ; method: luminescence ; result: 17 µM
Cc1ccc(C2(CCl)OC(=O)c3ccccc32)cc1 ; strain or isolate: IIIB ; method: luciferase ; result: 47.6 µM
Cc1cn([C@H]2C[C@H](N=[N+]=[N-])[C@@H](CO)O2)c(=O)[nH]c1=O ; strain or isolate: UG070 ; method: luciferase ; result: 0.01 µM
CCCCCOC(=O)C[C@H](NP(=O)(CO[C@@H](CF)COc1nccc(N)n1)Oc1ccccc1)C(=O)OCCCCC ; strain or isolate: NL4-3 ; method: luminescence ; result: 3.47 µM
Nc1ccc(/C=C/c2cc(Cl)c3ccccc3n2)cc1 ; strain or isolate: UG070 ; method: luminescence ; result: 47.73 µM
CC1=CC2=C(C(C)C)C(O)C(=O)/C(=C\N[C@H](C)C(=O)O)C2C(O)=C1c1c(C)cc2c(C(C)C)c(O)c(O)c(C=N[C@@H](C)C(=O)O)c2c1O.[Na+].[Na+] ; strain or isolate: IIIB ; method: p24 / ELISA / antigen ; result: 0.36 µM
Cc1ccc(C)c2c1[nH]c1cc(Cl)ccc12 ; strain or isolate: NL4-3 ; method: luminescence ; result: 3.5 µM
C[C@H]1CCCC[C@@H]1Oc1cc(CCc2ccccc2)[nH]c(=O)c1I ; strain or isolate: A17 ; method: ELISA ; result: 0.117 µM
N#Cc1cn(C[C@@H](CF)OCP(=O)(O)O)c2nc(N)[nH]c(=O)c12 ; strain or isolate: BaL ; method: luciferase ; result: >100 µM
Clc1cc(/C=C/c2ccc(N3CCCCC3)cc2)nc2ccccc12 ; strain or isolate: UG070 ; method: luminescence ; result: 66.79 µM
CCOC(=O)C(O)(c1cn(CCC(C)C)c2ccccc12)C(F)(F)F ; strain or isolate: IIIB ; result: 4.9 µM
COc1cc(/C=C/c2cc(Cl)c3ccccc3n2)cc(OC)c1 ; strain or isolate: UG070 ; method: luminescence ; result: 111 µM
CCCCCOC(=O)C[C@H](NP(=O)(CO[C@H](CF)COc1nccc(N)n1)Oc1ccccc1)C(=O)OCCCCC ; strain or isolate: BaL ; method: luminescence ; result: >43.21 µM
O=C1CCCN1CCCN1CC(=O)N2CC(N(CCOc3ccccc3)S(=O)(=O)c3cccc(F)c3)C[C@H]2C1=O ; strain or isolate: PLAI-JRFL PID3-19 ; method: luciferase ; result: >30 µM
Cc1ccc([C@]2(CCl)OC(=O)c3ccccc32)cc1 ; strain or isolate: IIIB ; method: luciferase ; result: 1.4 µM
c1cc(CN2CCCNCCNCCCNCC2)ccc1CN1CCCNCCNCCCNCC1 ; strain or isolate: NL4-3 ; method: luminescence ; result: 0.00095 µM
C[C@H](Cn1cnc2c(N)ncnc21)OCP(=O)(O)O ; strain or isolate: BaL ; method: luciferase ; result: 0.02 µM
CCC(Br)C1(c2ccc(F)cc2)OC(=O)c2ccccc21 ; strain or isolate: IIIB ; method: luciferase ; result: 129 µM

For reference, 3 entries again:

structure | strain or isolate | changes | method | result
C[C@H](Cn1cnc2c(N)ncnc21)OCP(=O)(O)O | BaL |  | luciferase | 0.02 µM
c1cc(CN2CCCNCCNCCCNCC2)ccc1CN1CCCNCCNCCCNCC1 | NL4-3 |  | luminescence | 0.00095 µM
CCC(I)C1(c2ccc(F)cc2)OC(=O)c2ccccc21 | IIIB |  | luciferase | 126 µM